Data set [1] can be described thus: Satratoxin G adducts in pronase digests of cat serum, MALDI-TOF MS. As to conditions: two cats with acute pulmonary hemorrhage from a mold-infiltrated house.
Data set [2] can be described thus: Amino acid-satratoxin G adducts in pronase digests of human serum, MALDI-TOF MS. The settings on record: three patients with documented exposure to S. chartarum, 2 mL serum.
Data set [3] deals with T1, human serum albumin (Homo sapiens, UniProt P02768). Kind of data set: MS analysis of intact rHSA incubated with satratoxin G (adduct formation in vitro). The settings on record: incubation with a 20-fold excess of toxin in vitro, ESI-TOF and MALDI-TOF MS.
In data set [4] the target is T1, human serum albumin. Kind of data set: SDS-PAGE and Western blot of human serum albumin incubated with satratoxin G, anti-satratoxin G antibody. As to conditions: PBS, 37° C., 20 h, increasing concentrations of satratoxin G, reduced and boiled samples. On the technique in general: Immunoblotting shows a protein as a band on a membrane.

Amino acid sequences for entries named in this document (tags omitted). A change or cut given only in a name is not applied to a line headed by its entry.
UniProt P02768: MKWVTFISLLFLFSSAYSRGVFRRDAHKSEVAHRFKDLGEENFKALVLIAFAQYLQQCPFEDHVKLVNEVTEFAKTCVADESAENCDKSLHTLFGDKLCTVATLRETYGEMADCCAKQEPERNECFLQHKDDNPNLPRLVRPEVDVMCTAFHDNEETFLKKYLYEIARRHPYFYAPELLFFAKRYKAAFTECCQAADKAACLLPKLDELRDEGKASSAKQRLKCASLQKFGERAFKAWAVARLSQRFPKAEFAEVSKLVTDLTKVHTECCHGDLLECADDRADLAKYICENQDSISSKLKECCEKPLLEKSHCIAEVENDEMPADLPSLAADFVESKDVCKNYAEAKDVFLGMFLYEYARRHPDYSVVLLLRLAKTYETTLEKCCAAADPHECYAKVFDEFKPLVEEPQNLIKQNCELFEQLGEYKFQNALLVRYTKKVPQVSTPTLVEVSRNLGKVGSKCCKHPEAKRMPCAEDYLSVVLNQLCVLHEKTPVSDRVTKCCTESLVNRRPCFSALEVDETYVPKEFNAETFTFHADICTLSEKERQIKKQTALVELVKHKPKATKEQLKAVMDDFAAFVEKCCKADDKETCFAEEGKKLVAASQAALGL

Turning to satratoxin G, under “1 h-72 h post exposure, 4.0×10^5 spores/gm body weight”, the “immunoreactive free toxin in sera of exposed animals” value is recorded as “No immunoreactive free toxin could be detected”. For the same substance, the “free toxin in the blood by ELISA at later times” value (rat pups, after the immediate time point) is on record as “No free toxin in the blood could subsequently be detected”. In data set [1], the “satratoxin G adducts in serum” value is reported as “Serum samples from both cats were positive for satratoxin G adducts”. Also, the “satratoxin G amino acid adducts in serum” value in data set [2] is recorded as “cysteinyl adducts were detected in all three of the exposed patient samples”. For the same substance, at human serum albumin [3], the “number of amino acid residues in the albumin molecule modified” value is “up to ten amino acid residues in the albumin molecule are modified”. Also, the “anti-satratoxin G staining of the HSA band at ~67 kDa” value on human serum albumin [4] was “intensity of staining increasing with increasing concentrations of satratoxin G”.

(Values after patent publication US20080199882A1, “METHOD FOR DETECTION OF BIOMARKERS FOR EXPOSURE TO STACHYBOTRYS” (published 2008).)
